PubChem BioAssay AID504761 – Drosophila RNAi Screening Center | 2011

- Test: 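Fly genes whose silencing reduces dengue virus type 2 infection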 (primary screen)
- Cell system: D.Mel-2 cells from Drosophila
- Knock-down reagent: long dsRNA against Drosophila genes
- Conditions: infection with dengue virus type 2; dose and infection time not stated
- Measurement: 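Per well on two replicate plates, imaging gave the percent of cells positive for viral envelope protein, ranked by infection, and a nuclear count of cells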
- Direction: infection score: higher = more virus-infected cells; cell count: higher = more cells in the well
- Active means: 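Low infection ranks in the two replicates (chance level up to 0.065) followed by a retest with a 1.5-fold or larger significant decrease, p below 0.05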
- Calls: active = confirmed: knock-down lowers infection; inactive = not picked or not confirmed
The screen tested about 22,000 reagents; this is an unselected part of those with a known target gene and a result. In the full data, 116 (0.52%) are marked active. 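Calls depend on retest data that are not deposited; infection was ranked per plate without normalising between plates; the unit of the infection score is not given.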 Raw values vary from plate to plate and are shown uncorrected. Reagents against one gene are numbered here. A plus sign joins genes that one reagent is predicted to hit. Further read-outs or replicates are left out here. The record does not give: the amount of reagent, the time to read-out.

Depletion of atos resulted in: infection score, replicate 1 = 7.77; cell count, replicate 1 = 6179; inactive.
Against nclb, the entry reads infection score, replicate 1 = 6.61; cell count, replicate 1 = 7009; inactive.
Depletion of 140up #1 came out at: infection score, replicate 1 = 10.4; cell count, replicate 1 = 6392; inactive.
Knock-down of 140up #2 came out at: infection score, replicate 1 = 4.9; cell count, replicate 1 = 2388; inactive.
For EndoU + CR31292, the values are infection score, replicate 1 = 7.43; cell count, replicate 1 = 4938; inactive.
After knock-down of ND-MWFE, the record shows infection score, replicate 1 = 11; cell count, replicate 1 = 5686; inactive.
For Lcp1, the entry reads infection score, replicate 1 = 4.73; cell count, replicate 1 = 6640; inactive.
CG34445 showed infection score, replicate 1 = 0.5; cell count, replicate 1 = 6338; inactive.
mei-38 scored infection score, replicate 1 = 2.43; cell count, replicate 1 = 5969; inactive.
Against CG6701, the entry reads infection score, replicate 1 = 15.3; cell count, replicate 1 = 5465; inactive.
With knock-down of CG17819, the record shows infection score, replicate 1 = 3.66; cell count, replicate 1 = 6662; inactive.
Knock-down of CG15140 resulted in: infection score, replicate 1 = 8.27; cell count, replicate 1 = 6564; inactive.

A few values from above.
Under “call”, CG34445 has inactive
For “call”, ND-MWFE is entered as inactive

Continued.
With knock-down of Adk1 the results were infection score, replicate 1 = 6.9; cell count, replicate 1 = 6696; inactive.
Against Prx3 #1 the deposit lists infection score, replicate 1 = 9.5; cell count, replicate 1 = 6229; inactive.
After knock-down of Prx3 #2, the screen gave infection score, replicate 1 = 0.68; cell count, replicate 1 = 590; inactive.
Silencing of Kap3 #1 came out at: infection score, replicate 1 = 9.41; cell count, replicate 1 = 6258; inactive.
After knock-down of Kap3 #2, the record shows infection score, replicate 1 = 0.92; cell count, replicate 1 = 5750; inactive.
Knock-down of Clc #1 gave: infection score, replicate 1 = 8.49; cell count, replicate 1 = 5338; inactive.
With knock-down of Clc #2 the results were infection score, replicate 1 = 4.33; cell count, replicate 1 = 5248; inactive.
Knock-down of Or67b came out at: infection score, replicate 1 = 1.36; cell count, replicate 1 = 6248; inactive.
Depletion of CG7707 gave: infection score, replicate 1 = 4.4; cell count, replicate 1 = 6365; inactive.
Knock-down of dpr9 #1 resulted in: infection score, replicate 1 = 19.9; cell count, replicate 1 = 2675; inactive.
Depletion of dpr9 #2 gave: infection score, replicate 1 = 8.22; cell count, replicate 1 = 5776; inactive.
dpr9 #3 scored infection score, replicate 1 = 10.6; cell count, replicate 1 = 4697; inactive.
Against dpr9 #4, the entry reads infection score, replicate 1 = 1.83; cell count, replicate 1 = 6572; inactive.
CG11475 #1 showed infection score, replicate 1 = 21.9; cell count, replicate 1 = 6141; inactive.
For CG11475 #2, the entry reads infection score, replicate 1 = 5.6; cell count, replicate 1 = 6405; inactive.
